Measured values from several laboratories, pooled; numbers as filed in NIAID ChemDB.

Common to all: enzyme or target tests; agent: HIV-1; protein: Reverse transcriptase; endpoint: inhibition

An empty or dashed field is not shown. Lines come from different laboratories, so protocols vary. Two numbers with a dash give a range or band. Inhibition is in % at the dose shown (toxicity tests: loss of growth or viability).

compound,changes,tested at,strain,value
Oc1cc(O)c2c(c1)O[C@H](c1ccc(O)c(O)c1)[C@H](O)C2,,0.1 µg/mL,LAV,0%
Oc1cc(O)c2c(c1)O[C@H](c1cc(O)c(O)c(O)c1)[C@H](O)C2,,10 µg/mL,,0%
C=C(Cc1ccc(O)cc1)C(=C)Cc1ccc(O)cc1,,250 µg/mL,,0%
O=C(/C=C/c1ccc(O)c(O)c1)O[C@@H]1C[C@](OC(=O)/C=C/c2ccc(O)c(O)c2)(C(=O)O)C[C@@H](O)[C@H]1O,,50 µg/mL,LAI,26%
O=C(O)c1cc(O)c(O)c(O)c1,,10 µg/mL,,10%
CC(=O)c1ccc(C)cc1NC(C(N)=O)c1c(Cl)cccc1Cl,,100 µg/mL,,86.6%
O=C(/C=C/c1ccc(O)c(O)c1)O[C@H]1[C@H](O)C[C@](O)(C(=O)O)C[C@H]1OC(=O)/C=C/c1ccc(O)c(O)c1,,10 µg/mL,IIIB,94.5%
O=C(O)[C@H]1O[C@@H](Oc2cc3oc(-c4ccccc4)cc(=O)c3c(O)c2O)[C@H](O)[C@@H](O)[C@@H]1O,,10 µg/mL,,90%
CC1(C)[C@@H](O[C@H]2O[C@H](C(=O)O)[C@@H](O)[C@H](O)[C@H]2O[C@@H]2O[C@H](C(=O)O)[C@@H](O)[C@H](O)[C@H]2O)CC[C@]2(C)[C@H]3C(=O)C=C4[C@@H]5C[C@@](C)(C(=O)O)CC[C@]5(C)CC[C@@]4(C)[C@]3(C)CC[C@@H]12,,250 µg/mL,,96.9%
COc1ccc2[nH]c(=O)oc2c1,,800 µM,,60.8%
C1CCNCCNCCCNCCNC1,,35 µM,,100%
O=c1c(O)c(-c2ccc(O)c(O)c2)oc2cc(O)c(O)c(O)c12,,2 µg/mL,,90%
CCc1c(Sc2ccccn2)n(COCc2ccccc2)c(=O)[nH]c1=O,RT-K103N,50 µM,,50%
CC[C@H]1CN2CCc3cc(OC)c(OC)cc3[C@@H]2C[C@@H]1C[C@H]1NCCc2cc(O)c(OC)cc21,,400 µg/mL,,10–20%
Nc1nc(=O)n([C@H]2C=C[C@@H](COP(=O)(O)OP(=O)(O)OP(=O)(O)O)O2)cc1F,,2.2 µM,,90%
O=C(O)c1cc(O)c(O)c(O)c1,,1 µg/mL,,0%
O=C(O)[C@H]1O[C@@H](Oc2cc3oc(-c4ccccc4)cc(=O)c3c(O)c2O)[C@H](O)[C@@H](O)[C@@H]1O,,5 µg/mL,LAV,46.49%
COC(=O)C(=O)OC1(C(=O)O)C[C@@H](OC(=O)/C=C/c2ccc(O)c(O)c2)C(O)[C@H](OC(=O)/C=C/c2ccc(O)c(O)c2)C1,,5 µg/mL,LAI,56%
CC/C=C\C/C=C\C/C=C\C/C=C\C/C=C\CCCC(=O)OC(CO[C@H]1O[C@H](CS(=O)(=O)O)[C@@H](O)[C@H](O)[C@H]1O)OC(=O)CCCCCCCCCCCCCCC,,30 µM,,>90%
CC[C@H]1CN2CCc3cc(OC)c(OC)cc3[C@@H]2C[C@@H]1C[C@H]1NCCc2cc(OC)c(OC)cc21,,400 µg/mL,,10–20%
Oc1cc(O)c2c(c1)O[C@H](c1ccc(O)c(O)c1)[C@H](O)C2,,10 µg/mL,,0%

Repeating the first 2 entries:

compound | changes | tested at | strain | value
Oc1cc(O)c2c(c1)O[C@H](c1ccc(O)c(O)c1)[C@H](O)C2 |  | 0.1 µg/mL | LAV | 0%
Oc1cc(O)c2c(c1)O[C@H](c1cc(O)c(O)c(O)c1)[C@H](O)C2 |  | 10 µg/mL |  | 0%